Laboratory results: the supplement of paper PMC9931576
Residue numbers refer to the chain shown, from its start. Human monoclonal antibodies against the spike receptor-binding domain (heavy:light variable regions). IC50 against pseudoviruses bearing the spike of naturally observed variants; lower = stronger; >10 µg/ml means not reached at the top dose. No active / inactive call. The stated detection limit is 0.0005 µg/ml; values near or below 0.001 µg/ml lie at the floor of the assay.

B1: BD57-0214 (protein)
chain 1: QVQLVQSGAEVKRPGASVEVSCKASGYTFTNYYIHWVRQAPGQGLEWMGIINPGGGSTMSAQTFQGRVTMTRDTSTTTVYMELNSLRSDDTAIYYCARGSQSFACSGSICDEKYDYYGMDVWGQGTTVTVSS
chain 2: DIVMTQSPLSLPVTPGEPAAISCRSSQSLLHSSGFNYLDWYLQRPGQPPQLLIFLGSNRASGVPDRFSGSGSGTDFTLKISRVEAEDVGVYYCMQALQPPQITFGQGTRLDIK
B2: BD57-0215 (protein)
chain 1: QDHLVQSGAEVRRPGSSVKVSCKSSGGTFISYAITWVRQAPGQGLEWMGRIIPIVGIPDYAQKFQGRVTINADKSTNTAYMELSSLRSDDTAVYYCARGRHDRSGDYLRRGGSGKYFDLWGRGTLVTVSS
chain 2: DIQMTQSPSSLSASVGDRVTITCQASQDISNYLNWYQQKPGEAPKLLIYDASSLETGVPSRFSGSGSGTDFTLTISSLQPEDIATYYCQQFDDLPPITFGQGTRLEIK
B3: BD57-0220 (protein)
chain 1: QVQLLQSGAEVKKPGASVRVSCKASGYSFSNFYIHWVRQAPGQGLQWMGIINPGGDSTSYAKKFQGRIIMASDTSTSTVYMDLSGLRSADTAVYYCARGGIVPAATQDFDYWGQGTLVTVSS
chain 2: EIVLTQSPATLSLSPGERATLSCRASQSVGNYLGWYQQKPGQAPRLLIYDASNRATGVPARFSGSGSGTDFTLTISRLEPEDFAVYFCLQRGNWPREEFTFGPGTKVDIK
B4: BD57-0223 (protein)
chain 1: EVQLVESGGGLVKPGGSLRLSCAASGFTFSNAWLSWVRQAPGKGLEWVGRIKSKIDGETTDYAAPVKGRITMSRDDSKNTLYLQMNSLKTEDTAMYYCTTESSLYSSSGYYSDGFGDWYFDLWGRGTLVTVSS
chain 2: QSALTQPRSVSGSPGQSVTISCTGTSSDVGGYNYVSWYQQHPGKAPKLMIYDVTERPSGVPDRFSGSKSGNTASLTISGLQAEDEADYYCCSYAGIYTLYVFGTGTKVTVL
B5: BD57-0226 (protein)
chain 1: QEQLVESGGGVVQPGRSLRLSCAASGFTFSHYGMHWVRQAPGKGLEWVAVISYDGSKRYYAVSVKGRFTISRDNSQNTVALQMNSLRAEDTAVYYCATYDITIFGVNRATGYGPFDIWGQGTMVTVSS
chain 2: QSVLTQPPSASGTPGQRVTISCSGSSSNIGSNFVHWYQQLPGTAPKLLMYGHNQRPSGVSDRFSASKSGTSASLAISGLRSQDEADYYCATWDDSLSGRVFGGGTKLTVL
B6: BD57-0228 (protein)
chain 1: QLQLQESGPGLVKPSETLSLICTVSGGSIASSDSYWGWIRQSPVKGLEWIGTIYHSGTTFYNPSLKSRVTISRDTSKNQLSLRLRSVTAADTAVYYCVRPRGSPSWFDPWGQGTLVTVSS
chain 2: EIVLTQSPATLSLSPGERATLSCRASQSVSTYLAWYQQRPGQAPRLLIYDASNRATGIPARFSGSGSGTDFTLTISSLEPEDFAVYYCQQRSNWPPQLTFGGGTKVEIK
B7: BD57-0230 (protein)
chain 1: QVQLVESGGGVVQPGRSLRLSCAASGFTFSDYAFHWVRQAPGKGLEWLAVILSDGSSKFHADSVKGRFTISRDSSKNTLFLQMNSLRTEDTAVYYCARDWGTTVTYFDYWGHGTLVTVSS
chain 2: DIQMTQSPSSLSASVGDRVTITCRASQSIRSFLGWYQQTPGKAPKLLIYDASSLQSGVPSRFSGSGSGTDFTLTISSLQPEDFATYYCQQSYSTPPWTFGQGTKVEIK
B8: BD57-0234 (protein)
chain 1: QVQLVQSGAEVKKPGSSVRVSCKASGGTFSNYPIAWVRQAPGQGLEWMGWIIPILGATTYAQNFQGRVTITADKSTGAAYMELASLTLEDTAVYYCARQVGYSGPGSNYYVDVWGRGTTVTVSS
chain 2: QSVLTQPPSVSGAPGQRVTISCTGSNSNIGAGYDVHWYSQFPGTAPKLLIYANSDRPSGVPDRFSGSKSGTSASLAISGLQAEDEADYYCQSYDSTLSGSVFGGGTKLTVL
B9: BD57-0235 (protein)
chain 1: QVQLVQSGAEVKKPGASVKVSCKASGYTFTNYAFSWVRQAPGQGLEWLGRISAHNDNINYAQKLQGRVTMTTDTSTKTAYMELRSLRSDDTAVYYCARNAVGATLVGDDYYYYYGMDVWGQGTTVTVSS
chain 2: SYEVTQPPSVSVSPGQTARITCSGDALPKQYAYWYQQRPGQAPVLVIYKDTERPSGIPERFSGSSSGTTVTLTISGVQAEDEADYYCQSADSSGTFVVFGGGTKLTVL
B10: BD57-0236 (protein)
chain 1: EVQLVESGGGLVQPGRSLRLSCAASGFNFDDYAMHWVRQVPGKGLEWVSGINWNSDSVAYAGAVKGRFTISRDNAKNSLYLQMNSLRPEDTAFYYCAKDISMGAGDYFDSWGQGTLVTVSS
chain 2: SYVLTQPPSVSVAPGKTASITCGGNNIGSKGVHWYQQKPGQAPVLVIYYDSDRPSGIPERFSGSNSGNTATLTISRVEAGDEADYYCQVWDGSGAHPGYVFGSGTRVTVL
B11: BD57-0240 (protein)
chain 1: QVQLVESGGGVVQPGRSLRLSCAASGFTFTNYVMHWVRQAPGKGLEWVAVILYDGSNKYYADSVKGRFTISRDSSKNTLYLQMNSLRVEDTAVYYCAKAGGPYCSGTNCYVSYFDYWGQGTLVTVSP
chain 2: DIQMTQSPSSLSASVGDRVTITCQASQDISKYLNWYQQKPGKAPKLLIYAASNLETGVPSRFSGSGSGTDFTFTISTLQPEDIATYSCQQYHNLPLTFGGGTKVEIK
B12: BD57-0241 (protein)
chain 1: QVQLVESGGGVVQPGRSLRLSCAASGFSFSNYAMHWVRQAPGKGPEWVAVILSDGSGKFYADSVKGRFTISRDNSKHTLFLQMNSLRPEDTAFYYCARDWGTTVTYFDYWGQGTLVTVSS
chain 2: B7 chain 2 with T22S, F32Y, G34S, T39K, Q55P, G100S

target: SARS-CoV-2 Omicron BA.1 spike pseudovirus; test: pseudovirus neutralization IC50; higher = weaker neutralization
Method: (§1)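 Single-round VSV luciferase pseudovirus mixed with antibody dilutions for 1 h and put on Huh-7 cells for about a day; IC50 from the dose curve.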

Binder | pseudovirus neutralization IC50
B1 | 0.997 µg/mL
B2 | > 10 µg/mL
B3 | > 10 µg/mL
B4 | 0.0308 µg/mL
B5 | > 10 µg/mL
B6 | > 10 µg/mL
B7 | > 10 µg/mL
B8 | 0.0462 µg/mL
B9 | 1.88 µg/mL
B10 | > 10 µg/mL
B11 | > 10 µg/mL
B12 | 3.41 µg/mL

target: SARS-CoV-2 Omicron BA.2 spike pseudovirus; test: as above
Method: as §1

Binder | pseudovirus neutralization IC50
B1 | 1.66 µg/mL
B2 | 0.00169 µg/mL
B3 | > 10 µg/mL
B4 | 0.0216 µg/mL
B5 | > 10 µg/mL
B6 | > 10 µg/mL
B7 | > 10 µg/mL
B8 | 0.0318 µg/mL
B9 | 2.11 µg/mL
B10 | > 10 µg/mL
B11 | > 10 µg/mL
B12 | 2.48 µg/mL

target: SARS-CoV-2 Omicron BA.2.75 spike pseudovirus; test: as above
Method: as §1

Binder | pseudovirus neutralization IC50
B1 | 2 µg/mL
B2 | > 10 µg/mL
B3 | > 10 µg/mL
B4 | 0.027 µg/mL
B5 | > 10 µg/mL
B6 | > 10 µg/mL
B7 | > 10 µg/mL
B8 | 0.0183 µg/mL
B9 | 1.68 µg/mL
B10 | > 10 µg/mL
B11 | > 10 µg/mL
B12 | 2.38 µg/mL

target: SARS-CoV-2 Omicron BA.5 spike pseudovirus; test: as above
Method: as §1

Binder | pseudovirus neutralization IC50
B1 | 1.92 µg/mL
B2 | 3.78 µg/mL
B3 | > 10 µg/mL
B4 | 0.122 µg/mL
B5 | > 10 µg/mL
B6 | > 10 µg/mL
B7 | > 10 µg/mL
B8 | 1.55 µg/mL
B9 | 2.45 µg/mL
B10 | > 10 µg/mL
B11 | > 10 µg/mL
B12 | 2.3 µg/mL

target: SARS-CoV-2 Omicron BQ.1.1 spike pseudovirus; test: as above
Method: as §1

Binder | pseudovirus neutralization IC50
B1 | 3.7 µg/mL
B2 | > 10 µg/mL
B3 | > 10 µg/mL
B4 | > 10 µg/mL
B5 | > 10 µg/mL
B6 | > 10 µg/mL
B7 | > 10 µg/mL
B8 | 1.7 µg/mL
B9 | 8.28 µg/mL
B10 | > 10 µg/mL
B11 | > 10 µg/mL
B12 | 3.69 µg/mL

target: SARS-CoV-2 Omicron XBB spike pseudovirus; test: as above
Method: as §1

Binder | pseudovirus neutralization IC50
B1 | 3.71 µg/mL
B2 | > 10 µg/mL
B3 | > 10 µg/mL
B4 | 8.79 µg/mL
B5 | > 10 µg/mL
B6 | > 10 µg/mL
B7 | > 10 µg/mL
B8 | 0.563 µg/mL
B9 | 2.07 µg/mL
B10 | > 10 µg/mL
B11 | > 10 µg/mL
B12 | 2.79 µg/mL

target: SARS-CoV-2 early D614G spike pseudovirus; test: as above
Method: as §1

Binder | pseudovirus neutralization IC50
B1 | 5.18 µg/mL
B2 | 0.000487 µg/mL
B3 | > 10 µg/mL
B4 | 0.0142 µg/mL
B5 | 0.334 µg/mL
B6 | > 10 µg/mL
B7 | > 10 µg/mL
B8 | 0.179 µg/mL
B9 | > 10 µg/mL
B10 | > 10 µg/mL
B11 | > 10 µg/mL
B12 | 0.764 µg/mL
